Measured data: PubChem BioAssay AID1259414 (Drosophila RNAi Screening Center, 2018)

Screen: 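Host factors increasing or decreasing Wolbachia levels in cultured fly cells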 (primary screen)
Cells: Drosophila JW18 cells infected with Wolbachia
Knock-down reagent: long dsRNA against Drosophila genes, 0.25 µg dsRNA per well of a 384-well plate
Timing: 5 days
Conditions: cells persistently infected with Wolbachia before knock-down; no added drug
Read-out: 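Imaged fluorescence in situ signal for Wolbachia 23S rRNA per DAPI-counted host cell, given as a robust z-score within each plate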
Direction: Wolbachia per cell robust z: higher = more Wolbachia per host cell than the plate typical
Active means: 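Active if absolute robust z reaches 1.5 in two or more of three replicates, leaving out multi- or no-target dsRNAs, genes unexpressed in JW18 and A1 wells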
In all, the deposit lists about 24,000 reagents; shown is an unselected part of those with a known target gene and a result. Of all reagents, about 1,210 (5%) are marked active. 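Inactive calls also include excluded dsRNAs with several or no targets, genes unexpressed in JW18, and well A1, regardless of score.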 The numbers tell different reagents against one gene apart. A plus sign joins genes that one reagent is predicted to hit.

CG42542 #1
- Wolbachia per cell robust z, rep 1: -0.128
- Wolbachia per cell robust z, rep 2: -0.111
- Wolbachia per cell robust z, rep 3: -0.926
- call: inactive

CG42542 #2
- Wolbachia per cell robust z, rep 1: -1.04
- Wolbachia per cell robust z, rep 2: -1.03
- Wolbachia per cell robust z, rep 3: -1.17
- call: inactive

CG42542 #3
- Wolbachia per cell robust z, rep 1: -4.19
- Wolbachia per cell robust z, rep 2: -0.776
- Wolbachia per cell robust z, rep 3: -0.678
- call: inactive

CG42542 #4
- Wolbachia per cell robust z, rep 1: 1.53
- Wolbachia per cell robust z, rep 2: 0.0219
- Wolbachia per cell robust z, rep 3: 0.389
- call: inactive

B-H1 #1
- Wolbachia per cell robust z, rep 1: 1.21
- Wolbachia per cell robust z, rep 2: 0.818
- Wolbachia per cell robust z, rep 3: 0.748
- call: inactive

B-H1 #2
- Wolbachia per cell robust z, rep 1: -0.935
- Wolbachia per cell robust z, rep 2: -1.62
- Wolbachia per cell robust z, rep 3: -0.842
- call: inactive

OXA1L #1
- Wolbachia per cell robust z, rep 1: 1.32
- Wolbachia per cell robust z, rep 2: 1.29
- Wolbachia per cell robust z, rep 3: 1.08
- call: inactive

OXA1L #2
- Wolbachia per cell robust z, rep 1: 0.312
- Wolbachia per cell robust z, rep 2: -0.594
- Wolbachia per cell robust z, rep 3: 0.294
- call: inactive

CG11899
- Wolbachia per cell robust z, rep 1: -0.723
- Wolbachia per cell robust z, rep 2: -1.48
- Wolbachia per cell robust z, rep 3: -0.155
- call: inactive

glob2
- Wolbachia per cell robust z, rep 1: -0.495
- Wolbachia per cell robust z, rep 2: -0.704
- Wolbachia per cell robust z, rep 3: -0.437
- call: inactive

Muc26B #1
- Wolbachia per cell robust z, rep 1: -0.0542
- Wolbachia per cell robust z, rep 2: 0.00158
- Wolbachia per cell robust z, rep 3: -0.37
- call: inactive

Muc26B #2
- Wolbachia per cell robust z, rep 1: 0.142
- Wolbachia per cell robust z, rep 2: -0.631
- Wolbachia per cell robust z, rep 3: -0.628
- call: inactive

Muc26B #3
- Wolbachia per cell robust z, rep 1: -3.22
- Wolbachia per cell robust z, rep 2: 0.221
- Wolbachia per cell robust z, rep 3: -0.214
- call: inactive

lncRNA:CR43174
- Wolbachia per cell robust z, rep 1: 0.0814
- Wolbachia per cell robust z, rep 2: 0.398
- Wolbachia per cell robust z, rep 3: 0.278
- call: inactive

CR41507 + CR41508 + CR41509 + 1 more
- Wolbachia per cell robust z, rep 1: -0.751
- Wolbachia per cell robust z, rep 2: -1.03
- Wolbachia per cell robust z, rep 3: -0.159
- call: inactive

Pgd #1
- Wolbachia per cell robust z, rep 1: 0.129
- Wolbachia per cell robust z, rep 2: -6.41
- Wolbachia per cell robust z, rep 3: 0.778
- call: inactive

Pgd #2
- Wolbachia per cell robust z, rep 1: -0.966
- Wolbachia per cell robust z, rep 2: 0.77
- Wolbachia per cell robust z, rep 3: 1.29
- call: inactive

CG17544 #1
- Wolbachia per cell robust z, rep 1: 0.575
- Wolbachia per cell robust z, rep 2: -0.373
- Wolbachia per cell robust z, rep 3: -0.542
- call: inactive

CG17544 #2
- Wolbachia per cell robust z, rep 1: 1.44
- Wolbachia per cell robust z, rep 2: 0.138
- Wolbachia per cell robust z, rep 3: -0.0291
- call: inactive

Nfs1
- Wolbachia per cell robust z, rep 1: 2.11
- Wolbachia per cell robust z, rep 2: -1.14
- Wolbachia per cell robust z, rep 3: -0.671
- call: inactive

Atf3
- Wolbachia per cell robust z, rep 1: 0.248
- Wolbachia per cell robust z, rep 2: -0.0199
- Wolbachia per cell robust z, rep 3: -0.777
- call: inactive

CG5810 #1
- Wolbachia per cell robust z, rep 1: 0.223
- Wolbachia per cell robust z, rep 2: -0.988
- Wolbachia per cell robust z, rep 3: 0.563
- call: inactive

CG5810 #2
- Wolbachia per cell robust z, rep 1: -0.986
- Wolbachia per cell robust z, rep 2: -0.609
- Wolbachia per cell robust z, rep 3: -1.06
- call: inactive

ACOX1 #1
- Wolbachia per cell robust z, rep 1: 1.34
- Wolbachia per cell robust z, rep 2: 0.196
- Wolbachia per cell robust z, rep 3: 0.0063
- call: inactive

ACOX1 #2
- Wolbachia per cell robust z, rep 1: 0.00556
- Wolbachia per cell robust z, rep 2: -0.18
- Wolbachia per cell robust z, rep 3: 2.02
- call: inactive
